The values below come from article PMC7865074.

This test concerns the target full-length (FL) NS5 protein (wt PBM) of West Nile virus (West Nile virus). Kind of test: split reporter (BiFC, NanoBiT); N2H split-NanoLuc in HEK-293T cells; full-length NS5 with 257 single PDZ domains; read-out NLR with NS5 minus NLR with NS5ΔPBM, three experiments; hits > 0.25.
For the substance “Sorting nexin-27, PDZ domain (N2H construct) (from UniProt Q96L92 43-136) (domain or fragment)”, the NLR(NS5) - NLR(NS5ΔPBM) is 2.74.

With “Disks large homolog 1, PDZ domain 1 (N2H construct) (from UniProt Q12959 224-310) (domain or fragment)”, the NLR(NS5) - NLR(NS5ΔPBM) came out at 0.82.

With “Disks large homolog 2, PDZ domain 1 (N2H construct) (from UniProt Q15700 98-184) (domain or fragment)”, the NLR(NS5) - NLR(NS5ΔPBM) came out at 1.
